Pooled drug test results. Numbers come from NIAID ChemDB, via PubChem.

All rows: growth or infection tests; organism: HIV-1; method: RT activity; read-out: inhibition

Inhibition is in % at the dose shown (toxicity tests: loss of growth or viability).

SMILES	cell line	conditions	changes	strain	tested at	value
Cc1cn([C@H]2C[C@H](F)[C@@H](CO)O2)c(=O)[nH]c1=O	MT-4			IIIB	0.025 µM	95%
O=C(O)P(=O)(O)O	PBL	21 d		IIIB	64 µM	82%
Nc1nc(=O)n([C@H]2C[C@H](OC(=O)c3ccccc3)[C@@H](COC(=O)c3ccccc3)O2)cc1-c1cccs1	H9			IIIB	10 µg/mL	1%
N[C@@H](CCC(=O)N1C(=O)SC[C@H]1C(=O)O)C(=O)O	Macrophage + Monocytes/macrophages			BaL	2000 µM	17%
Nc1ccn([C@H]2CC[C@@H](CO)O2)c(=O)n1	PBL (activated) + PBL			SF162 R5	0.2 µM	97%
CCCCCCCCCCCCCCCCOP(=O)(OC[C@H]1OC(O)[C@H](O)[C@@H](O)[C@@H]1O)OC[C@H]1O[C@@H](n2cc(C)c(=O)[nH]c2=O)C[C@@H]1N=[N+]=[N-]	PBL	7 d		LAV-Bru	25 µM	91%
OCC(S)CS	MOLT-4			IIIB-C-3	5 µg/mL	80%
Cc1cn([C@H]2C[C@H](N=[N+]=[N-])[C@@H](COP(=O)(O)OC[C@H]3OC(O)[C@H](O)[C@@H](O)[C@@H]3O)O2)c(=O)[nH]c1=O	CEM	15 d		LAV-Bru	5 µM	98%
Nc1ncnc2c1ncn2[C@H]1CC[C@@H](CO)O1	C8166			HXBc2	20 µM	75%
Cc1ccc(C(=O)OC[C@H]2O[C@@H](n3cc(-c4ccncc4)c(N)nc3=O)C[C@@H]2OC(=O)c2ccc(C)cc2)cc1	H9			IIIB	10 µg/mL	57.5%
O=C1N[C@H](C(=O)O)CS1	Macrophage + Monocytes/macrophages			BaL	500 µM	19%
CC(=O)N[C@H]1[C@H](OCCCCCCOC(=O)OC[C@H]2O[C@@H](n3cc(C)c(=O)[nH]c3=O)C[C@@H]2N=[N+]=[N-])O[C@H](CO)[C@@H](O)[C@@H]1O	CEM-113 + CEM/C113				20 µg/mL	90%
CCc1c(C)[nH]c(=O)c([N+](=O)[O-])c1Sc1cc(C)cc(C)c1				Isolated virion	10 µM	100%
Nc1nc(NC2CC2)c2ncn([C@H]3C=C[C@@H](CO)C3)c2n1	PBL (activated) + PBL			BZ X4	4 µM	89%
CCCCCCCCCCCCCCCCOC[C@H](CCl)OP(=O)(O)OCC[N+](C)(C)C	H9			IIIB	10 µM	81%
CC(=O)N[C@@H](CS)C(=O)O	U1 (HIV-1 LAV PMA stimulated) + U1			LAV	1000 µM	25%
COc1ccccc1CN[C@H]1C2CCN(CC2)[C@H]1C(c1ccccc1)c1ccccc1	Macrophage + Monocytes/macrophages			BaL	0.1 µM	43%
Cc1cn([C@H]2CC[C@@H](CO)O2)c(=O)[nH]c1=O	PBMC			LAV	1 µM	70.9%
Cn1cccc1-c1cn([C@H]2C[C@H](O)[C@@H](CO)O2)c(=O)nc1N	H9			IIIB	10 µg/mL	8%
CC(=O)N1C(=O)SC[C@H]1C(=O)O	Macrophage + Monocytes/macrophages			BaL	2000 µM	66%
Cc1ccc(C(=O)OC[C@H]2O[C@@H](n3cc(-c4ccoc4)c(N)nc3=O)C[C@@H]2OC(=O)c2ccc(C)cc2)cc1	H9			IIIB	10 µg/mL	>90%
O=C(O)CNC(=O)[C@@H]1CSC(=O)N1	Macrophage + Monocytes/macrophages			BaL	2000 µM	55%
Nc1nc(=O)n([C@H]2C[C@H](O)[C@@H](CO)O2)cc1-c1ccc(-c2ccccc2)s1	H9			IIIB	10 µg/mL	32.5%
Cc1cn([C@H]2C[C@H](N=[N+]=[N-])[C@@H](CO)O2)c(=O)[nH]c1=O	MT-4			IIIB	0.0625 µM	98.62%
Cc1cn([C@H]2C[C@H](N=[N+]=[N-])[C@@H](CO)O2)c(=O)[nH]c1=O	PBMC			LAV	0.1 µM	94%
CC[C@@]1(O)C(=O)OCc2c1cc1n(c2=O)Cc2cc3ccccc3nc2-1	H9			IIIB	0.1 µM	98%
C=C(C)[C@@H]1CC[C@]2(C(=O)NCCCCCCCC(=O)N[C@@H](CC(C)C)[C@H](O)CC(=O)O)CC[C@]3(C)[C@H](CC[C@@H]4[C@@]5(C)CC[C@H](O)C(C)(C)[C@@H]5CC[C@]43C)[C@@H]12	PBMC			89.6	1.84 µM	90%
[Se]	U1			LAV	0.025 µg/mL	22%
CC(C)(C)NC(=O)[C@@H]1CN(Cc2cccnc2)CCN1C[C@@H](O)C[C@@H](Cc1ccccc1)C(=O)N[C@H]1c2ccccc2C[C@H]1O		10 d	PR-V32I M46I L63P I84A	CGP 61755-resistant (PR V32I M46I L63P I84A)	2.7 µM	100%
Nc1nc(=O)n([C@H]2C[C@H](O)[C@@H](CO)O2)cc1-c1nccs1	H9			IIIB	10 µg/mL	10%
O=c1[nH]cnc2c1ncn2[C@H]1CC[C@@H](CO)O1	PBL (resting) + PBL			IIIB	1 µM	97%
Nc1nc(=O)n([C@H]2C[C@H](O)[C@@H](CO)O2)cc1-c1ccsc1	H9			IIIB	10 µg/mL	<1%
Nc1nc(=O)n([C@@H]2C[Se][C@H](CO)O2)cc1F	PBMC			LAV	1.05 µM	90%

Neighbouring rows are from separate reports. Blank or dashed fields: not listed here.